The source's definition of the ratio is not given here.
Test system: ZIKV
Assay: Antiviral activity against ZIKV (strain 976 Uganda) in A549 cells, intracellular ZIKV genomes by qRT-PCR
Format: cell-based, Zika virus
Conditions: Selectivity Index

Row | SMILES | SI
1 | CONC(=O)[C@H]1[C@@H](O)[C@@]2(O)c3c(OC)cc(OC)cc3O[C@@]2(c2ccc(OC)cc2)[C@@H]1c1ccccc1 [CR-31-B (−)] | 17.1
2 | COC(=O)[C@H]1[C@@H](O)[C@@]2(O)c3c(OC)cc(O[C@@H]4O[C@@H]([C@H](O)CO)CO[C@H]4OC)cc3O[C@@]2(c2ccc(OC)cc2)[C@@H]1c1ccccc1 [Silvestrol, methyl(1R,2R,3S,3aR,8bS)-6-[[(2S,3R,6R)-6-[(1R)-1,2-dihydroxyethyl]-3-methoxy-1,4-dioxan-2-yl]oxy]-1,8b-dihydroxy-8-methoxy-3a-(4-methoxyphenyl)-3-phenyl-2,3-dihydro-1H-cyclopenta[b][1]benzofuran-2-carboxylate, reference compound] | 8.8
